A mixed list of measured activities; the numbers were collected in NIAID ChemDB.

Common to all: whole-cell or culture tests

Lines come from different laboratories, so protocols vary. Inhibition is in % at the dose shown (toxicity tests: loss of growth or viability). An empty or dashed field is not shown. Fold resistance: result on the changed form divided by that on wild type. A number after MIC or MFC names an inhibition level or a share of isolates. ECn: concentration that inhibits the pathogen or its effect by n%.

compound	agent	strain	mutations	cell line	read by	measure	dose	value
CC(=O)N1CCN(c2ccc(OC[C@H]3CO[C@](Cn4ccnc4)(c4ccc(Cl)cc4Cl)O3)cc2)CC1	Candida albicans	Isogenic isolate 9 (25X)	-	-	-	MIC	-	≤0.008 µg/mL
C=C(C)[C@@H]1CC[C@]2(CO)CC[C@]3(C)[C@H](CC[C@@H]4[C@@]5(C)CC[C@H](O)C(C)(C)[C@@H]5CC[C@]43C)[C@@H]12	Herpes simplex virus 1	KOS	-	HeLa	cytopathic effect	EC50	-	>200 µg/mL
NC12CC3CC(CC(C3)C1)C2	Influenza A virus	H1N1 NWS/33	-	MDCK	plaque count	EC50	-	>50 µg/mL
CCC12C=CCN3CC[C@@]4(c5ccc(OC)cc5N(C)[C@H]4[C@@](O)(C(=O)OC)[C@@H]1OC(C)=O)[C@@H]32	Herpes simplex virus 1	KOS	-	HeLa	cytopathic effect	EC50	-	>200 µg/mL
Nc1ccc(S(=O)(=O)c2ccc(N)cc2)cc1	Mycobacterium ulcerans	Isolate 5155	-	-	-	MBC	-	8 µg/mL
CO[C@H]1/C=C/O[C@@]2(C)Oc3c(C)c(O)c4c(=O)c(c5oc6cc(N7CCN(CC(C)C)CC7)cc(=O)c6nc5c4c3=C2O)NC(=O)/C(C)=C\C=C\[C@H](C)[C@H](O)[C@@H](C)[C@@H](O)[C@@H](C)[C@H](OC(C)=O)[C@@H]1C	Staphylococcus aureus	16 strains (methicillin- quinolone-resistant)	-	-	-	MIC50	-	0.0078 µg/mL
OC(Cn1cncn1)(Cn1cncn1)c1ccc(F)cc1F	Candida albicans	YL 338	-	-	broth dilution	MIC	-	512 µg/mL
Nc1ncnc2c1ncn2[C@H]1C=C[C@H](O)[C@@H]1O	Measles virus	-	-	CV-1	virus yield	EC50	-	>100 µg/mL
CCOC(=O)Nc1cc(NC(C)/C(=N/O)c2cccc([N+](=O)[O-])c2)c([N+](=O)[O-])c(N)n1	Encephalitozoon intestinalis	-	-	RK-13	-	inhibition	0.1 µg/mL	0%
COC(=O)Nc1nc2ccc(Sc3ccccc3)cc2[nH]1	Cryptococcus neoformans	ATCC 14116	-	-	-	EC50	-	<0.016 µg/mL
NC1CCN(c2c(F)cc3c(=O)c(C(=O)O)cn(C4CC4)c3c2Cl)C1	Staphylococcus aureus	20 strains (oxacillin-susceptible)	-	-	-	MIC50	-	0.015 µg/mL
O=C(NC(=O)c1c(F)cccc1F)Nc1cc(Cl)c(OC(F)(F)C(F)C(F)(F)F)cc1Cl	Encephalitozoon intestinalis	-	-	RK-13	-	inhibition	10 µg/mL	61.8%
CN(C)c1ccc(O)c2c1C[C@H]1C[C@H]3[C@H](N(C)C)C(=O)C(C(N)=O)=C(O)[C@@]3(O)C(=O)C1=C2O	Mycobacterium bolletii	-	-	-	broth dilution	MIC	-	>128 µg/mL
CC1(C)C2CCC1(C)C(O)C2	Herpes simplex virus 1	KOS	-	HeLa	cytopathic effect	EC50	-	>200 µg/mL
NC(=O)c1ncn([C@@H]2O[C@H](CO)[C@@H](O)[C@H]2O)n1	Measles virus	Halonen	-	CV-1	neutral red	EC50	-	1 µg/mL
Nc1ccn(C[C@@H](CO)OCP(=O)(O)O)c(=O)n1	Adenovirus	adenoid 6 (TYPE 2)	-	-	virus yield	EC90	-	0.2 µg/mL
NC[C@H]1O[C@H](O[C@H]2[C@H](O)[C@@H](O)[C@H](N)C[C@@H]2N)[C@H](N)[C@@H](O)[C@@H]1O	Herpes simplex virus 1	KOS	-	HeLa	cytopathic effect	EC50	-	>200 µg/mL
C[C@H](Cc1ccc(O)c(O)c1)[C@@H](C)Cc1ccc(O)c(O)c1	Candida lusitaniae	CCC 131-2000	-	-	broth dilution	MIC80	-	500 µg/mL
CN(C)[C@@H]1C(=O)C(C(N)=O)=C(O)[C@@]2(O)C(=O)C3=C(O)c4c(O)c(NC(=O)CNC(F)(F)F)cc(F)c4C[C@H]3C[C@@H]12	Streptococcus pneumoniae	160-tet	-	-	agar diffusion	EC50	-	1 µg/mL
CC(C)(CO)C(=O)SCCOP(=O)(NCc1ccccc1)OC[C@H]1O[C@@H](n2cnc3c(=O)[nH]c(N)nc32)[C@](C)(O)[C@@H]1O	Hepatitis C virus	GT1a	Q30E	Replicon cells	replicon	fold resistance	-	1.11
CC1(C)[C@@H](O[C@H]2O[C@H](C(=O)O)[C@@H](O)[C@H](O)[C@H]2O[C@@H]2O[C@H](C(=O)O)[C@@H](O)[C@H](O)[C@H]2O)CC[C@]2(C)[C@H]3C(=O)C=C4[C@@H]5C[C@@](C)(C(=O)O)CC[C@]5(C)CC[C@@]4(C)[C@]3(C)CC[C@@H]12	West Nile virus	E101	-	VERO	virus yield	EC50	-	<625 µg/mL
Nc1nc2c(ncn2COCOCP(=O)(O)O)c(=O)[nH]1	Parainfluenza virus	SF (TYPE 5)	-	-	virus yield	EC90	-	31 µg/mL
COC(=O)Nc1nc2ccc(C(=O)c3cccs3)cc2[nH]1	Cryptococcus neoformans	IU4	-	-	-	EC50	-	<0.22 µg/mL
CCOc1cc(Cc2cnc(N)nc2N)cc(OCC)c1-n1cccc1	Mycobacterium ulcerans	Isolate 8756	-	-	-	MBC	-	1 µg/mL
C[C@H]1COc2c(N3CCN(C)CC3)c(F)cc3c(=O)c(C(=O)O)cn1c23	Streptococcus pneumoniae	Clinical isolate RT2	-	-	-	MIC	-	16 µg/mL
CCOC(=O)Nc1cc2c(c(N)n1)N=C(c1ccc(OC)c(OC)c1)CO2	Encephalitozoon intestinalis	-	-	RK-13	-	inhibition	0.1 µg/mL	5.7%
Nc1nc2c(ncn2CCOCP(=O)(O)O)c(=O)[nH]1	Measles virus	Halonen	-	-	virus yield	inhibition	0.3 µg/mL	90%
COc1ccc2cc3[n+](cc2c1OC)CCc1cc2c(cc1-3)OCO2	Vittaforma corneae	-	-	RK-13	-	inhibition	1 µg/mL	55.2%
CCCCCCCCCCCCCCCCCCCCCCOCC(C)(COCCCCCCCCCCCCCCCCCCCCCC)CO[C@]1(C(=O)O)C[C@H](OS(=O)(=O)O)[C@@H](NC(C)=O)[C@H]([C@H](OS(=O)(=O)O)[C@@H](COS(=O)(=O)O)OS(=O)(=O)O)O1	Respiratory syncytial virus	FM-58-8	-	HEP-2	plaque count	EC50	-	0.15 µM
CCCSc1ccc2nc(NC(=O)OC)[nH]c2c1	Vittaforma corneae	-	-	RK-13	-	inhibition	1 µg/mL	89.2%
CC[C@H]1OC(=O)[C@H](C)[C@@H](O[C@H]2C[C@@](C)(OC)[C@@H](O)[C@H](C)O2)[C@H](C)[C@@H](O[C@@H]2O[C@H](C)C[C@H](N(C)C)[C@H]2O)[C@](C)(OC)C[C@@H](C)C(=O)[C@H](C)[C@@H](O)[C@]1(C)O	Mycobacterium abscessus	X40	-	-	broth dilution	MIC	-	1 µg/mL
Nc1nccc2c1ncn2[C@@H]1C[C@H](CO)[C@@H](O)[C@H]1O	Vesicular stomatitis virus	-	-	E6SM	cytopathic effect	EC50	-	2 µg/mL
CC(C)=CCN1Cc2cc(Cl)cc3[nH]c(=S)n(c23)C[C@@H]1C	HIV-1	-	RT-L74V Y181C	MT-4	-	EC95	-	>3 µM
Cc1c(N)nc([C@H](CC(N)=O)NC[C@H](N)C(N)=O)nc1C(=O)N[C@H](C(=O)N[C@H](C)[C@@H](O)[C@H](C)C(=O)N[C@H](C(=O)NCCc1nc(-c2nc(C(=O)NCCC[S+](C)C)cs2)cs1)[C@@H](C)O)C(O[C@@H]1O[C@@H](CO)[C@@H](O)[C@H](O)[C@@H]1O[C@H]1O[C@H](CO)[C@@H](O)[C@H](OC(N)=O)[C@@H]1O)c1cnc[nH]1	Herpes simplex virus 1	KOS	-	HeLa	cytopathic effect	EC50	-	>200 µg/mL
COc1cc2oc(=O)ccc2cc1CC(O)C(C)(C)O	Staphylococcus epidermidis	-	-	-	-	MIC	-	15.6 µg/mL
CCCCC1=Nc2c(cc(NC(=O)OCC)nc2N)NC1C	Encephalitozoon intestinalis	-	-	RK-13	-	inhibition	1 µg/mL	77.3%
CO[C@H]1/C=C/O[C@@]2(C)Oc3c(C)c(O)c4c(O)c(c(/C=N/N5CCN(C)CC5)c(O)c4c3C2=O)NC(=O)/C(C)=C\C=C\[C@H](C)[C@H](O)[C@@H](C)[C@@H](O)[C@@H](C)[C@H](OC(C)=O)[C@@H]1C	Staphylococcus aureus	20 strains (methicillin-susceptible)	-	-	-	MIC50	-	0.0039 µg/mL
COc1ccc(C(F)(F)F)cc1NCc1cnc2nc(N)nc(N)c2c1C	Encephalitozoon intestinalis	-	-	RK-13	-	inhibition	0.01 µg/mL	5.3%
C#CC[C@@H](C(=O)N[C@H](/C=C/C(=O)OCC)C[C@@H]1CCNC1=O)n1cccc(NC(=O)c2cc(C)on2)c1=O	Rhinovirus	Serotype 59	-	H1-HELA	cytopathic effect / XTT	inhibition	0.044 µM	90%
COC(=O)Nc1nc2ccccc2[nH]1	Cryptococcus neoformans	IU8698	-	-	-	EC50	-	<2 µg/mL
CCO/N=C/c1ccc(OCCC2CCN(c3ccc(C)nn3)CC2)cc1	Rhinovirus	50-525-CV54 (ICAM-1 receptor group 85)	-	KB	neutral red	EC50	-	0.008 µM

The last 2 rows once more:

compound,agent,strain,mutations,cell line,read by,measure,dose,value
COC(=O)Nc1nc2ccccc2[nH]1,Cryptococcus neoformans,IU8698,-,-,-,EC50,-,<2 µg/mL
CCO/N=C/c1ccc(OCCC2CCN(c3ccc(C)nn3)CC2)cc1,Rhinovirus,50-525-CV54 (ICAM-1 receptor group 85),-,KB,neutral red,EC50,-,0.008 µM